According to US20240174727A1 (Eli Lilly and Company, priority 2022, published 2024):

Tests used:
[1] = general procedure: Fmoc solid-phase peptide synthesis; Fmoc-Rink-MBHA Low Loading Resin (EMD Millipore), 100-200 mesh, 0.3-0.4 meq/g; HBTU/DIPEA; conditions: whole synthesis, RP-HPLC, analytical LC-MS, scale of the general procedure 0.1 mmol, TFA salt
[2] = peptide synthesis; conditions: whole synthesis, TFA salt, cyclic

With “HOOC-(CH2)18-CO-(γGlu)-EKEKEKGS-4Pal-RRSS[CFGGRIDRIGHQSGLGC]PSFRHGGPSSGAPPPS-NH2” the “final HPLC purity” value ([1]; one disulfide bridge) was over 95%.

For “HOOC-(CH2)18-CO-(γGlu)-EKEKEKG-PEG24-EK-βAla-RSS[CFGGKIDRIGHQSGLGC]PSFRHGSPSSGAPPPS-NH2”, the “final HPLC purity” value [2] was over 95%.

With “HOOC-(CH2)18-CO-(γGlu)-EKEKEKG-PEG24-EK-βAla-RSS[CFGKRIDRIGHQSGLGC]PSFRHGGKSSGAPPPS-NH2” the “final HPLC purity” value [2] was over 95%.

In the case of “BFA-EKEKEKGEKGRSS[CFGGKIDRIGHYSGLGC]PSFRHGGPSSGAPPPS-NH2”, the “final LC-MS purity” value ([1]; one disulfide bridge) is reported as over 95.0%.

With “HOOC-(CH2)18-CO-(γGlu)-EKEKEKG-PEG24-EK-βAla-RSS[CFGGKIDRIGHYSGLGC]PSFRHGSPSSGAPPPS-NH2” the “final HPLC purity” value ([1]; cyclic) was over 95%.

In the case of “(BFAEN2-βAla)-EKEKEKG-PEG24-EK-βAla-RSS[CFGGKIDRIGHYSGLGC]PSFRHGGKSSGAPPPS-NH2”, the “final LC-MS purity” value ([1]; cyclic) is reported as over 95.0%.

In the case of “HOOC-(CH2)18-CO-(γGlu)-EKEKEKG-PEG24-EK-βAla-RSS[CFGKRIDRIGHQSGLGC]PSFRHGSPSSGAPPPS-NH2”, the “final HPLC purity” value [2] is reported as over 95%.
